The values that follow come from patent US20250059581A1, “METHOD OF BACTERIAL IDENTIFICATION AND TESTING OF BACTERIUM RESISTANT TO ONE OR MORE ANTIBIOTICS” (Nanyang Technological University, priority 2021, published 2025).

This assay concerns S. aureus. In words: Bacterial growth inhibition by D-Ala-N3. The conditions noted are these: D-Ala-N3 1.5 mM.

Take `Cl.[N-]=[N+]=NC[C@@H](N)C(=O)O`: the “potential bacterial growth inhibition” value was “would not have significant inhibition on bacterial growth”.
